Anti-infective test results gathered from many reports (values: NIAID ChemDB through PubChem).

Common to all: tests in culture; organism: Herpes simplex virus 2

Blank or dashed fields: not listed here. Neighbouring rows are from separate reports. Percent inhibition refers to the dose given; in toxicity tests it is the harm to the cells. ECn: concentration that inhibits the pathogen or its effect by n%.

COP(=O)(CC(=O)O[C@H]1C[C@H](n2cc(CCCl)c(=O)[nH]c2=O)O[C@@H]1CO)OC ; measure: inhibition ; cell line: VERO ; method: cytopathic effect ; tested at: 227 µM ; strain or isolate: TK- ; value: >25%
O=C(O)CP(=O)(O)O ; measure: inhibition ; cell line: SIRC ; method: plaque count ; tested at: 100 µM ; strain or isolate: 91075 ; value: 96%
CCOC(=O)CP(=O)(OC)OC[C@H]1O[C@@H](n2cc(I)c(=O)[nH]c2=O)C[C@@H]1O ; measure: inhibition ; cell line: VERO ; method: cytopathic effect ; tested at: 57.9 µM ; strain or isolate: K979 ; value: >25%
O=C1c2cc3ccoc3cc2O[C@@H]2COc3cc4c(cc3[C@]12O)OCO4 ; measure: inhibition ; cell line: VERO ; method: plaque count ; tested at: 50 µg/mL ; strain or isolate: 186 ; value: 42.5%
COc1cc2c(cc1CO)CC[C@H]1C(C)(CO)CCC[C@]21C ; measure: inhibition ; cell line: VERO ; method: plaque count ; tested at: 100 µM ; value: 100%
NC(=O)c1cn(-c2ccccc2F)c2cc(-c3ccncc3)ccc2c1=O ; measure: EC50 ; cell line: VERO ; method: plaque count ; value: >1.6 µg/mL
COc1c2c(cc3ccoc13)C(=O)[C@H]1c3cc4c(cc3OC[C@H]1O2)OCO4 ; measure: inhibition ; cell line: VERO ; method: plaque count ; tested at: 50 µg/mL ; strain or isolate: 186 ; value: 15.5%
CCn1cc(C(N)=O)c(=O)c2ccc(N3CCN(C)CC3)cc21 ; measure: EC50 ; cell line: VERO ; method: plaque count ; value: >50 µg/mL
COP(=O)(CC(=O)OC[C@H]1O[C@@H](n2cc(I)c(=O)[nH]c2=O)C[C@@H]1O)OC ; measure: inhibition ; cell line: VERO ; method: cytopathic effect ; tested at: 5.9 µM ; strain or isolate: K979 ; value: >25%
CCN1C=C2C(=O)CN=C2c2ccc(-c3ccncc3)cc21 ; measure: EC50 ; cell line: VERO ; method: plaque count ; value: >100 µg/mL
O=c1[nH]c(=O)n([C@H]2C[C@H](O)[C@@H](CO)O2)cc1CCCl ; measure: inhibition ; cell line: VERO ; method: cytopathic effect ; tested at: 102 µM ; strain or isolate: K979 ; value: >25%
O=C(O)P(=O)(O)O ; measure: inhibition ; cell line: SIRC ; method: plaque count ; tested at: 500 µM ; strain or isolate: V10183 ; value: >99.9%
CCn1cc2c(=O)n(-c3ccccc3)nc-2c2ccc(-c3ccncc3)cc21 ; measure: EC50 ; cell line: VERO ; method: plaque count ; value: >100 µg/mL
COc1c2c(cc3ccoc13)C(=O)[C@@]1(O)c3cc4c(cc3OC[C@H]1O2)OCO4 ; measure: inhibition ; cell line: VERO ; method: plaque count ; tested at: 50 µg/mL ; strain or isolate: 186 ; value: 56.3%
O=C(OCc1ccccc1)P(=O)(O)OC[C@H]1O[C@@H](n2cc(CCCl)c(=O)[nH]c2=O)C[C@@H]1O ; measure: inhibition ; cell line: VERO ; method: cytopathic effect ; tested at: 205 µM ; strain or isolate: TK- ; value: >25%

For reference, 2 entries again:

smiles,measure,cell line,method,tested at,strain or isolate,value
COP(=O)(CC(=O)O[C@H]1C[C@H](n2cc(CCCl)c(=O)[nH]c2=O)O[C@@H]1CO)OC,inhibition,VERO,cytopathic effect,227 µM,TK-,>25%
NC(=O)c1cn(-c2ccccc2F)c2cc(-c3ccncc3)ccc2c1=O,EC50,VERO,plaque count,-,-,>1.6 µg/mL